Test results taken from article PMC6430785, “Selective binding of a toxin and phosphatidylinositides to a mammalian potassium channel” (Nature Communications, 2019).

Key:
[1] = target: T1, GIRK2 R201A mutant (mouse, residues 52-380) (Mus musculus, UniProt P48542 52-380, R201A); test: native MS
T1 sequence: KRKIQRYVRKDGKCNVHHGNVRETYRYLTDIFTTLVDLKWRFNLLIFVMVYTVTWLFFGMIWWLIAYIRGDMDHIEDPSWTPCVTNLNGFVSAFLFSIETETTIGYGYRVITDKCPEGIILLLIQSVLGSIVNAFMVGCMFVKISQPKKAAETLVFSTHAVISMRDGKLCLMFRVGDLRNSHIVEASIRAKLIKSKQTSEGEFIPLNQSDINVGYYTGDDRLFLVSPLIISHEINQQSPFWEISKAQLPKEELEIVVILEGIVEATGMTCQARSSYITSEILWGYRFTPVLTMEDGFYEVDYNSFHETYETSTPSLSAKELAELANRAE

[2] = target: T2, Mouse G-protein-gated inward rectifying potassium channel 2 (GIRK2), residues 52-380 (Mus musculus, UniProt P48542 52-380); test: native MS
T2 construct: also called Kir3.2; KCNJ6; not shown: eGFP, C-terminal, cleaved; StrepII, C-terminal, cleaved; His6, C-terminal, cleaved
T2 sequence (looked up): T1 sequence with A150R

Q: Does ALCNCNRIIIPHQCWKKCGKK [Tertiapin Q (oxidation resistant form of tertiapin, Met13 mutated to Q)] bind [1]?
A: binds

Q: What about the “stoichiometry N” value [2] of the same binder?
A: 1

Residue numbers refer to the chain shown, from its start.
